PubChem BioAssay AID1259414 | Drosophila RNAi Screening Center | 2018
In all, the deposit lists about 24,000 reagents; below is an unselected part of those that have a named target and a result. In the full data, about 1,210 (5%) are marked active. 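Inactive calls also include excluded dsRNAs with several or no targets, genes unexpressed in JW18, and well A1, regardless of score.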 A plus sign joins genes that one reagent is predicted to hit.

Screen: 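Fly genes that alter Wolbachia amount inside host cells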 (primary screen)
Cells: Drosophila JW18 cells infected with Wolbachia
Knock-down reagent: long dsRNA against Drosophila genes, 0.25 µg dsRNA per well of a 384-well plate
Duration: 5 days
Conditions: cells persistently infected with Wolbachia before knock-down; no added drug
Measured: 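Imaged fluorescence in situ signal for Wolbachia 23S rRNA per DAPI-counted host cell, given as a robust z-score within each plate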
Reading the numbers: Wolbachia per cell robust z: higher = more Wolbachia per host cell than the plate typical
Call rule: 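Hit when robust z is 1.5 or more, or -1.5 or less, in at least two of three replicates; excludes dsRNAs with several or no targets, genes not expressed in JW18 and well A1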

Ir51a [SID104186048] → Wolbachia per cell robust z, rep 1: -3.11; Wolbachia per cell robust z, rep 2: 0.241; Wolbachia per cell robust z, rep 3: 0.338; outcome: inactive
Mgat4b [SID104190048] → Wolbachia per cell robust z, rep 1: -0.136; Wolbachia per cell robust z, rep 2: 0.229; Wolbachia per cell robust z, rep 3: 0.425; outcome: inactive
Mgat4b [SID104208383] → Wolbachia per cell robust z, rep 1: 0.618; Wolbachia per cell robust z, rep 2: -0.134; Wolbachia per cell robust z, rep 3: -0.633; outcome: inactive
foi [SID104190511] → Wolbachia per cell robust z, rep 1: 3.54; Wolbachia per cell robust z, rep 2: 3.91; Wolbachia per cell robust z, rep 3: 7.69; outcome: active
foi [SID104208140] → Wolbachia per cell robust z, rep 1: 0.696; Wolbachia per cell robust z, rep 2: 3.06; Wolbachia per cell robust z, rep 3: 2.69; outcome: active
Arpc4 [SID104182709] → Wolbachia per cell robust z, rep 1: 0.0843; Wolbachia per cell robust z, rep 2: 0.0497; Wolbachia per cell robust z, rep 3: -0.272; outcome: inactive
Arpc4 [SID104208152] → Wolbachia per cell robust z, rep 1: 0.00447; Wolbachia per cell robust z, rep 2: -0.141; Wolbachia per cell robust z, rep 3: 2.34; outcome: inactive
CG42296 [SID104180186] → Wolbachia per cell robust z, rep 1: -0.739; Wolbachia per cell robust z, rep 2: -1.2; Wolbachia per cell robust z, rep 3: -1.6; outcome: inactive
UBL3 [SID104202649] → Wolbachia per cell robust z, rep 1: -0.185; Wolbachia per cell robust z, rep 2: 0.373; Wolbachia per cell robust z, rep 3: -1.92; outcome: inactive
Gba1a [SID104201223] → Wolbachia per cell robust z, rep 1: -1.47; Wolbachia per cell robust z, rep 2: 0.646; Wolbachia per cell robust z, rep 3: 0.242; outcome: inactive
CG7714 [SID104196092] → Wolbachia per cell robust z, rep 1: -0.441; Wolbachia per cell robust z, rep 2: 0.3; Wolbachia per cell robust z, rep 3: -1.05; outcome: inactive
CG7714 [SID104203376] → Wolbachia per cell robust z, rep 1: 0.878; Wolbachia per cell robust z, rep 2: 0.0129; Wolbachia per cell robust z, rep 3: 0.334; outcome: inactive
CG14545 [SID104194681] → Wolbachia per cell robust z, rep 1: -3.63; Wolbachia per cell robust z, rep 2: -1.4; Wolbachia per cell robust z, rep 3: 0.481; outcome: inactive
CG14545 [SID104206272] → Wolbachia per cell robust z, rep 1: 0.366; Wolbachia per cell robust z, rep 2: 1.15; Wolbachia per cell robust z, rep 3: 0.578; outcome: inactive
dsh [SID104199595] → Wolbachia per cell robust z, rep 1: 0.244; Wolbachia per cell robust z, rep 2: -0.122; Wolbachia per cell robust z, rep 3: 1.01; outcome: inactive
dsh [SID104216719] → Wolbachia per cell robust z, rep 1: 0.409; Wolbachia per cell robust z, rep 2: -0.99; Wolbachia per cell robust z, rep 3: -1.61; outcome: inactive
Tsr1 [SID104191613] → Wolbachia per cell robust z, rep 1: -0.342; Wolbachia per cell robust z, rep 2: -0.573; Wolbachia per cell robust z, rep 3: -0.457; outcome: inactive
SuUR [SID104191084] → Wolbachia per cell robust z, rep 1: 0.119; Wolbachia per cell robust z, rep 2: -1.28; Wolbachia per cell robust z, rep 3: -0.7; outcome: inactive
SuUR [SID104219061] → Wolbachia per cell robust z, rep 1: 0.103; Wolbachia per cell robust z, rep 2: -2.36; Wolbachia per cell robust z, rep 3: 0.583; outcome: inactive
GstD7 [SID104196480] → Wolbachia per cell robust z, rep 1: -0.113; Wolbachia per cell robust z, rep 2: 0.0234; Wolbachia per cell robust z, rep 3: 0.99; outcome: inactive
GstD7 [SID104208451] → Wolbachia per cell robust z, rep 1: -0.536; Wolbachia per cell robust z, rep 2: -0.384; Wolbachia per cell robust z, rep 3: -7.6; outcome: inactive
Snapin + HemK2 [SID104204729] → Wolbachia per cell robust z, rep 1: -1.4; Wolbachia per cell robust z, rep 2: -0.505; Wolbachia per cell robust z, rep 3: -0.63; outcome: inactive
CG11700 [SID104197586] → Wolbachia per cell robust z, rep 1: 0.43; Wolbachia per cell robust z, rep 2: 1.63; Wolbachia per cell robust z, rep 3: 2.09; outcome: active
CG11700 [SID104202716] → Wolbachia per cell robust z, rep 1: 2.95; Wolbachia per cell robust z, rep 2: 2.92; Wolbachia per cell robust z, rep 3: 4.06; outcome: active

Active calls, of those listed so far:
foi [SID104190511] → Wolbachia per cell robust z, rep 1: 3.54; Wolbachia per cell robust z, rep 2: 3.91; Wolbachia per cell robust z, rep 3: 7.69; outcome: active
foi [SID104208140] → Wolbachia per cell robust z, rep 1: 0.696; Wolbachia per cell robust z, rep 2: 3.06; Wolbachia per cell robust z, rep 3: 2.69; outcome: active
CG11700 [SID104197586] → Wolbachia per cell robust z, rep 1: 0.43; Wolbachia per cell robust z, rep 2: 1.63; Wolbachia per cell robust z, rep 3: 2.09; outcome: active
CG11700 [SID104202716] → Wolbachia per cell robust z, rep 1: 2.95; Wolbachia per cell robust z, rep 2: 2.92; Wolbachia per cell robust z, rep 3: 4.06; outcome: active
